Anti-infective test results gathered from many reports (values: NIAID ChemDB through PubChem).

Common to all: whole-cell or culture tests; agent: Hepatitis C virus

Blank or dashed fields: not listed here. ECn: concentration that inhibits the pathogen or its effect by n%. Lines come from different laboratories, so protocols vary. Two numbers with a dash give a range or band.

smiles | cell line | measure | method | strain | result
Cc1cc(-c2nnc(N[C@@H]3CCC[C@H](O)C3)o2)nc2c(C(C)(C)C)cc(NCC(F)(F)F)cc12 | Huh7 | EC50 |  | GT 1b H94N | 0.0012 µM
CC(C)(C)OC(=O)[C@@H](NC(=O)N[C@H](C(=O)N1C[C@H]2C([C@H]1C(=O)NC(CC1CCC1)C(=O)C(N)=O)C2(C)C)C1Cc2ccccc2C1)C(C)(C)C |  | EC90 | replicon |  | 10 µM
CC1CCC(C(=O)N(c2cc(-c3ccc(NC(=O)c4ncccc4F)cc3)sc2C(=O)O)C(C)C)CC1 |  | EC50 | replicon | 1a | <0.5 µM
C=C[C@@H]1C[C@@]1(NC(=O)[C@H]1C[C@@H](Oc2nnc(-n3cncn3)c3ccccc23)CN1C(=O)[C@@H](N)C(C)(C)C)C(=O)NS(=O)(=O)C1CC1 | Huh7 | EC50 | replicon | BMS | 0.1–1 µM
CC1CCC(C(=O)N(CC2CC2)c2cc(-c3ccc(NC(=O)c4ccccn4)cc3)sc2C(=O)O)CC1 |  | EC50 | replicon | 1a | <0.5 µM
C=CC[C@](C)(NC(=O)[C@H]1C[C@@H](Oc2nccc3c(SCCC)c(OCC)ccc23)CN1C(=O)[C@@H](NC(=O)OC(C)(C)C)C(C)(C)C)C(=O)NS(=O)(=O)C1CC1 | Huh7 | EC50 | replicon | BMS | <0.1 µM
CC(C)OC(=O)N[C@H](C(=O)N1C[C@@H]2OC(C)(C)C[C@@H]2C1C(=O)NC(CC1CC1)C(=O)C(=O)NCC(=O)N[C@H](C(=O)N(C)C)c1ccccc1)C(C)(C)C |  | EC90 | replicon |  | 1.8 µM
CC1(C)CC(=O)C2=C(C1)Nc1c(O)cccc1N(C(=O)CCC(=O)Nc1ccccc1OC(F)F)C2c1ccc(OCc2ccccc2)cc1Cl |  | EC50 | luciferase / reporter gene / replicon | 1b | 1.46 µM
Cc1nc(C)c(C(=O)Nc2ccc(-c3cc(N(C(=O)C4CCC(C)CC4)C(C)C)c(C(=O)O)s3)cc2)o1 |  | EC50 | replicon | 1a | >0.5 µM
CC(C)(C)C(NC(=O)N[C@H](C(=O)N1C[C@H]2C([C@H]1C(=O)NC(CC1CCC1)C(=O)C(N)=O)C2(C)C)C1Cc2ccccc2C1)C(=O)O |  | EC90 | replicon |  | 5 µM
CC1CCC(C(=O)N(c2cc(-c3ccc(NC(=O)c4cccc(F)c4)cc3)sc2C(=O)O)C(C)C)CC1 |  | EC50 | replicon | 1b | <0.5 µM
C=CC[C@](C)(NC(=O)[C@H]1C[C@@H](Oc2cnc3ccccc3n2)CN1C(=O)[C@@H](NC(=O)OC(C)(C)C)C(C)(C)C)C(=O)NS(=O)(=O)C1CC1 | Huh7 | EC50 | replicon | BMS | 0.1–1 µM
CC1(C)CC(=O)C2=C(C1)Nc1c(O)cccc1N(C(=O)CCc1ccccc1)C2c1ccc(Cl)cc1Cl |  | EC50 | luciferase / reporter gene / replicon | 1b | 2.23 µM
C=C[C@@H]1C[C@@]1(NC(=O)[C@H]1C[C@@H](Oc2ccnc3cc(F)ccc23)CN1C(=O)[C@@H](NC(=O)OC(C)(C)C)C(C)(C)C)C(=O)NS(=O)(=O)C1CC1 | Huh7 | EC50 | replicon | BMS | 0.1–1 µM
O=C(Cc1cccc(N2CCCC2)c1)N/N=C/c1ccccc1OS(=O)(=O)c1ccc(C(F)(F)F)cc1 | Huh7 | EC50 | replicon |  | 5–50 µM
CC1(C)CC(=O)C2=C(C1)Nc1c(O)cccc1N(C(=O)c1csc(-c3ccccc3)n1)C2c1ccc(OCc2ccccc2)cc1F |  | EC50 | luciferase / reporter gene / replicon | 1b | 3.88 µM
O=C(CCc1ccco1)N/N=C/c1ccccc1OS(=O)(=O)c1ccc(C(F)(F)F)cc1 | Huh7 | EC50 | replicon |  | <5 µM
C=CC[C@](C)(NC(=O)[C@H]1C[C@@H](Oc2nccc3c(C(=O)c4cccs4)c(OCC)ccc23)CN1C(=O)[C@@H](NC(=O)OC(C)(C)C)C(C)(C)C)C(=O)NS(=O)(=O)C1CC1 | Huh7 | EC50 | replicon | BMS | 0.1–1 µM
CN(C)C(=O)CCC(=O)N1c2cccc(O)c2NC2=C(C(=O)CC(C)(C)C2)C1c1ccc(OCc2ccccc2)cc1Cl |  | EC50 | luciferase / reporter gene / replicon | 1b | 5.36 µM
CCC(C)OC(=O)N[C@H](C(=O)N1C[C@H]2C(C1C(=O)NC(CC1CC1)C(=O)C(N)=O)C2(C)C)C(C)(C)C |  | EC90 | replicon |  | 0.4 µM
CC1CCC(C(=O)N(c2cc(-c3ccc(NC(=O)c4cscn4)cn3)sc2C(=O)O)C(C)C)CC1 |  | EC50 | replicon | 1a | >0.5 µM
Cc1cccc(/C=N/NC(=O)Cc2cccc(Cl)c2)c1OS(=O)(=O)c1ccc(C(F)(F)F)cc1 | Huh7 | EC50 | replicon |  | <5 µM
CC(=O)N1c2cccc(O)c2NC2=C(C(=O)CC(C)(C)C2)C1c1ccc(-c2ccccc2)cc1 |  | EC50 | luciferase / reporter gene / replicon | 1b | 19.31 µM
O=C(Cc1ccccc1)N/N=C/c1ccccc1OS(=O)(=O)c1cc(Cl)cc(Cl)c1 | Huh7 | EC50 | replicon |  | 5–50 µM
Cc1cc(-c2nnc(N[C@@H]3CCC[C@H](O)C3)o2)nc2c(C(C)(C)C)cc(OCC(F)(F)F)cc12 |  | EC50 | luciferase | 2a - JFH | 0.096 µM
CCC(C)C(NC(=O)N[C@H](C(=O)N1C[C@H]2C([C@H]1C(=O)NC(CC1CC1)C(=O)C(=O)NCC(=O)N[C@H](C(=O)N(C)C)c1ccccc1)C2(C)C)C(C)(C)C)C(=O)OCc1ccccc1 |  | EC90 | replicon |  | 0.4 µM
COc1cccc(CC(=O)N/N=C/c2ccccc2OS(=O)(=O)c2ccc(-c3cc(C(F)(F)F)n(C)n3)s2)c1 | Huh7 | EC50 | replicon |  | <5 µM
CC[C@H]1C[C@@]1(NC(=O)[C@@H]1C[C@@H](Oc2nccc3cc(OC)ccc23)CN1C(=O)[C@@H](NC(=O)OC(C)(C)C)C(C)(C)C)C(=O)NS(=O)(=O)C(C)C | Huh7 | EC50 | replicon | BMS | <0.1 µM
COc1cccc(CC(=O)N/[N+](C)=C/c2ccc(F)cc2OS(=O)(=O)c2ccc(C(F)(F)F)cc2)c1 | Huh7 | EC50 | replicon |  | >50 µM
CC(C)(C)[C@H](NC(=O)N[C@H](C(=O)N1C[C@H]2C([C@H]1C(=O)NC(CC1CC1)C(=O)C(N)=O)C2(C)C)C(C)(C)C)C(=O)OC1Cc2ccccc2C1 |  | EC90 | replicon |  | 0.5 µM
O=C(Cc1ccc(F)c(C(F)(F)F)c1)N/N=C/c1ccccc1OS(=O)(=O)c1ccc(C(F)(F)F)cc1 | Huh7 | EC50 | replicon |  | <5 µM
C=CCNC(=O)C(=O)C(CCCC)NC(=O)[C@@H]1C2[C@H](CN1C(=O)[C@@H](NC(=O)NC(C(=O)O)C(C)(C)C)C(C)(C)C)C2(C)C |  | EC90 | replicon |  | 10 µM
C=CC[C@](C)(NC(=O)[C@H]1C[C@@H](Oc2nccc3c(SC)c(OC)ccc23)CN1C(=O)[C@@H](NC(=O)OC(C)(C)C)C(C)(C)C)C(=O)NS(=O)(=O)C1CC1 | Huh7 | EC50 | replicon | BMS | <0.1 µM
COc1cccc(CC(=O)N/N=C/c2ccccc2OS(=O)(=O)c2ccc(C)cc2)c1 | Huh7 | EC50 | replicon |  | <5 µM

4 of the rows above, restated:

smiles,cell line,measure,method,strain,result
CC1CCC(C(=O)N(c2cc(-c3ccc(NC(=O)c4cscn4)cn3)sc2C(=O)O)C(C)C)CC1,,EC50,replicon,1a,>0.5 µM
C=CC[C@](C)(NC(=O)[C@H]1C[C@@H](Oc2cnc3ccccc3n2)CN1C(=O)[C@@H](NC(=O)OC(C)(C)C)C(C)(C)C)C(=O)NS(=O)(=O)C1CC1,Huh7,EC50,replicon,BMS,0.1–1 µM
CC[C@H]1C[C@@]1(NC(=O)[C@@H]1C[C@@H](Oc2nccc3cc(OC)ccc23)CN1C(=O)[C@@H](NC(=O)OC(C)(C)C)C(C)(C)C)C(=O)NS(=O)(=O)C(C)C,Huh7,EC50,replicon,BMS,<0.1 µM
Cc1cc(-c2nnc(N[C@@H]3CCC[C@H](O)C3)o2)nc2c(C(C)(C)C)cc(NCC(F)(F)F)cc12,Huh7,EC50,,GT 1b H94N,0.0012 µM